Results of unrelated studies side by side (data: NIAID ChemDB).

All rows: growth or infection tests; organism: HIV-2; method: cytopathic effect / XTT; read-out: EC50

Rows are shuffled and stem from different studies. ECn is the concentration giving n% inhibition of infection, replication or growth. Blank or dashed fields: not listed here.

smiles	cells	strain or isolate	result
Cc1occc1C(=S)Nc1ccc(Cl)c(/C=N/OC(C)(C)C)c1	CEM + CEM-SS	ROD	>20 µM
Cc1cn([C@H]2C[C@H](N=[N+]=[N-])[C@@H](CO)O2)c(=O)[nH]c1=O	CEM + CEM-SS	ROD	0.6 µM
O=C(O)c1cc(O)cc(O)c1N=Nc1ccc(/C=C/c2ccc(N=Nc3c(O)cc(O)cc3C(=O)O)cc2S(=O)(=O)O)c(S(=O)(=O)O)c1	CEM + CEM-SS	ROD	11.9 µg/mL
CCCc1cc(=O)oc2c3c(c4c(c12)OC(C)(C)C=C4)O[C@H](C)[C@@H](C)[C@@H]3O	CEM + CEM-SS	MS	>10 µM
CC(C)=CCN1Cc2cccc3[nH]c(=S)n(c23)C[C@@H]1C	CEM + CEM-SS	-	>35 µM
O=[N+]([O-])c1ccccc1S(=O)(=O)c1ccccc1	CEM + CEM-SS	ROD	>250 µM
CCc1c(C(=O)c2cc(C)cc(C)c2)n(CC2CC=CC2)c(=O)[nH]c1=O	CEM + CEM-SS	+ 20mg/mL BSA	0.002 µM
Cn1cc(N)cc1C(=O)Nc1cc(C(=O)Nc2ccc3cc(S(=O)(=O)O)cc(S(=O)(=O)O)c3c2)n(C)c1	CEM + CEM-SS	ROD	120 µM
Cc1cn([C@H]2C[C@H](N=[N+]=[N-])[C@@H](CO)O2)c(=O)[nH]c1=O	CEM	ST	0.023 µg/mL
CC1=CC(=O)C(C)(C2=NC(C)(C)CO2)c2ccccc21	CEM + CEM-SS	CBL-20	>1000 µM
Cc1cn([C@H]2C[C@H](N=[N+]=[N-])[C@@H](CO)O2)c(=O)[nH]c1=O	CEM + CEM-SS	-	0.005 µM
Cc1ccnc2c1NC(=O)c1cccnc1N2C1CC1	CEM + CEM-SS	ROD	>38 µM
O=S1(c2ccccc2)=NC(=S)Nc2ccccc21	CEM + CEM-SS	ROD	>73 µM
CC(C)(C)OC(=O)N[C@@H](Cc1ccccc1)[C@H](O)CNC[C@@H](O)[C@H](Cc1ccccc1)NC(=O)OC(C)(C)C	CEM + CEM-SS	CBL-20	0.33 µM
C/C=C/CSc1cc(NC(=S)c2ccsc2C)ccc1Cl	CEM + CEM-SS	ROD	>20 µM
Cc1cn([C@H]2C[C@H](N=[N+]=[N-])[C@@H](CO)O2)c(=O)[nH]c1=O	CEM + CEM-SS	ROD	0.002 µM
Cc1cn([C@H]2C[C@H](N=[N+]=[N-])[C@@H](CO)O2)c(=O)[nH]c1=O	CEM + CEM-SS	ROD	0.005 µM
c1ccc2c(c1)sc1nccn12	CEM + CEM-SS	-	>69 µM
Cc1c(Sc2ccccc2)n(COCCO)c(=O)[nH]c1=O	CEM + CEM-SS	ROD	>325 µM
Cc1cn([C@H]2C[C@H](N=[N+]=[N-])[C@@H](CO)O2)c(=O)[nH]c1=O	CEM + CEM-SS	ROD	0.0009 µM
Cc1cn([C@H]2C[C@H](N=[N+]=[N-])[C@@H](CO)O2)c(=O)[nH]c1=O	CEM + CEM-SS	ROD	0.005 µM
Cc1cn([C@H]2C[C@H](N=[N+]=[N-])[C@@H](CO)O2)c(=O)[nH]c1=O	-	MS	0.008 µM

A second listing of 2 rows from above:

smiles	cells	strain or isolate	result
Cc1cn([C@H]2C[C@H](N=[N+]=[N-])[C@@H](CO)O2)c(=O)[nH]c1=O	CEM + CEM-SS	ROD	0.6 µM
C/C=C/CSc1cc(NC(=S)c2ccsc2C)ccc1Cl	CEM + CEM-SS	ROD	>20 µM